PubChem BioAssay AID1259414, Drosophila RNAi Screening Center – 2018
In all, the deposit lists about 24,000 reagents; shown is an unselected part of those with a known target gene and a result. Over the whole deposit, about 1,210 (5%) were called active. 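Inactive calls also include excluded dsRNAs with several or no targets, genes unexpressed in JW18, and well A1, regardless of score.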 Entries without a mark were called inactive. A plus sign joins genes that one reagent is predicted to hit.

Aim: 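Fly genes that alter Wolbachia amount inside host cells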 (primary screen)
Cells: Drosophila JW18 cells infected with Wolbachia
Reagents: long dsRNA against Drosophila genes, 0.25 µg dsRNA per well of a 384-well plate
Time to read-out: 5 days
Treatment: cells persistently infected with Wolbachia before knock-down; no added drug
Read-out: 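Automated imaging of bacterial rRNA staining divided by host cell count, reported as plate-normalised robust z-score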
Scale: Wolbachia per cell robust z: higher = more Wolbachia per host cell than the plate typical
Hit rule: 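Active if absolute robust z reaches 1.5 in two or more of three replicates, leaving out multi- or no-target dsRNAs, genes unexpressed in JW18 and A1 wells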

Best3 [SID104189672] scored Wolbachia per cell robust z, rep 1 = 0.791 (active); Wolbachia per cell robust z, rep 2 = -1.86; Wolbachia per cell robust z, rep 3 = -2.6.
Against omd [SID104196299], the entry reads Wolbachia per cell robust z, rep 1 = 2.33 (active); Wolbachia per cell robust z, rep 2 = 2.62; Wolbachia per cell robust z, rep 3 = -0.413.
For omd [SID104207913] the deposit lists Wolbachia per cell robust z, rep 1 = 1.11; Wolbachia per cell robust z, rep 2 = -4.44; Wolbachia per cell robust z, rep 3 = 0.636.
Knock-down of CG33229 + lncRNA:CR42862 [SID104188289] gave: Wolbachia per cell robust z, rep 1 = -5.26; Wolbachia per cell robust z, rep 2 = -0.753; Wolbachia per cell robust z, rep 3 = -1.91.

In a second layout: 2 of the entries above
{"gene knocked down":"Best3","PubChem SID":"SID104189672","Wolbachia per cell robust z, rep 1":"0.791 (active)","Wolbachia per cell robust z, rep 2":-1.86,"Wolbachia per cell robust z, rep 3":-2.6}
{"gene knocked down":"omd","PubChem SID":"SID104196299","Wolbachia per cell robust z, rep 1":"2.33 (active)","Wolbachia per cell robust z, rep 2":2.62,"Wolbachia per cell robust z, rep 3":-0.413}

The listing continues.
loco [SID104194994] showed Wolbachia per cell robust z, rep 1 = -0.919; Wolbachia per cell robust z, rep 2 = 0.297; Wolbachia per cell robust z, rep 3 = -5.06.
Knock-down of loco [SID104196781] came out at: Wolbachia per cell robust z, rep 1 = -0.191; Wolbachia per cell robust z, rep 2 = 0.254; Wolbachia per cell robust z, rep 3 = 0.514.
For loco [SID104206239] the deposit lists Wolbachia per cell robust z, rep 1 = -0.686; Wolbachia per cell robust z, rep 2 = 0.0636; Wolbachia per cell robust z, rep 3 = 1.2.
Obp22a [SID104179880] scored Wolbachia per cell robust z, rep 1 = -1.69; Wolbachia per cell robust z, rep 2 = -1.5; Wolbachia per cell robust z, rep 3 = 0.0238.
CG13053 [SID104189726] gave Wolbachia per cell robust z, rep 1 = -2.84; Wolbachia per cell robust z, rep 2 = 0.648; Wolbachia per cell robust z, rep 3 = -1.58.
For insc [SID104184487], the values are Wolbachia per cell robust z, rep 1 = 0.579; Wolbachia per cell robust z, rep 2 = -0.165; Wolbachia per cell robust z, rep 3 = 1.32.
With knock-down of TwdlY [SID104198945], the screen gave Wolbachia per cell robust z, rep 1 = -2.36; Wolbachia per cell robust z, rep 2 = -0.532; Wolbachia per cell robust z, rep 3 = -0.68.
cnir [SID104180291] showed Wolbachia per cell robust z, rep 1 = -1.57; Wolbachia per cell robust z, rep 2 = -1.19; Wolbachia per cell robust z, rep 3 = -0.111.
cnir [SID104205331] showed Wolbachia per cell robust z, rep 1 = 0.753; Wolbachia per cell robust z, rep 2 = 1.06; Wolbachia per cell robust z, rep 3 = 1.36.
